Results of unrelated studies side by side (data: NIAID ChemDB).

All rows: target-level tests; agent: Mycobacterium tuberculosis

Neighbouring rows are from separate reports.

| compound | endpoint | protein | method | tested at | strain | result |
|---|---|---|---|---|---|---|
| O=c1[nH]c(=O)n([C@H]2C[C@H](O)[C@@H](COP(=O)([O-])[O-])O2)cc1Cc1ccccc1 | Ki | Thymidine monophosphate kinase | - | - | - | 10 µM |
| O=C(CCN1C(=O)/C(=C/c2ccc(OCc3ccccc3)cc2)SC1=S)NNC(=O)c1ccccc1 | IC50 | Pantothenate synthetase | absorbance | - | - | 0.79 µM |
| COC(=O)c1sc(-c2ccncc2)nc1OCc1cnnn1-c1cc2ccc(N)cc2oc1=O | IC50 | DNA gyrase | gel / absorbance | - | - | 13.3 µM |
| Cc1ccc(C2NC(=O)N=C3C2C(=O)N=C2SC([N+](=O)[O-])=CN23)cc1 | inhibition | CysK1 | absorbance | 100 µM | - | 42.3% |
| COc1cc(/C=C2\SC(=S)N(CCC(=O)NNC(=O)c3ccncc3)C2=O)cc(OC)c1OC | IC50 | Pantothenate synthetase | absorbance | - | - | 0.35 µM |
| C[C@@H]1CN(c2c(F)c(N)c3c(=O)c(C(=O)O)cn(C4CC4)c3c2F)C[C@H](C)N1 | IC50 | Gyrase (V90A+V94D mutant) | - | - | - | >400 µg/mL |
| Nc1ccc2cc(-n3nncc3COc3nc(-c4ccncc4)sc3C=O)c(=O)oc2c1 | IC50 | DNA gyrase | gel / absorbance | - | - | 11.8 µM |
| O=C(CCN1C(=O)/C(=C/c2ccc([N+](=O)[O-])cc2)SC1=S)NNC(=O)c1cccnc1 | IC50 | Pantothenate synthetase | absorbance | - | - | 2.51 µM |
| O=C1N=C2C(C(=O)N=C3SC([N+](=O)[O-])=CN32)C(c2ccc(F)cc2)N1 | inhibition | CysK1 | absorbance | 100 µM | - | 0% |
| O=C(O)Cc1ccc(O)cc1 | Ki | Rv3273 | - | - | Rv3273 | 11.4 µM |
| O=C1N=C2SC([N+](=O)[O-])=CN2C2=NC(=S)NC(c3ccccc3O)C12 | inhibition | CysK1 | absorbance | 100 µM | - | 31.2% |
| CCOc1ccc2cc(-n3nncc3COc3nc(-c4cccnc4)sc3C(=O)OC)c(=O)oc2c1 | IC50 | DNA gyrase | gel / absorbance | - | - | 0.5 µM |
| Cc1ccc(C2NC(=S)N=C3C2C(=O)N=C2SC([N+](=O)[O-])=CN23)cc1 | inhibition | CysK1 | absorbance | 100 µM | - | 0% |
| O=C(CCN1C(=O)/C(=C/c2ccc3c(c2)OCO3)SC1=S)NNC(=O)c1ccccc1 | IC50 | Pantothenate synthetase | absorbance | - | - | 5.86 µM |
| O=C1N=C2SC([N+](=O)[O-])=CN2C2=NC(=S)NC(c3cccc(Br)c3)C12 | inhibition | CysK1 | absorbance | 100 µM | - | 60.1% |
| COC(=O)c1sc(-c2ccccn2)nc1OCc1cnnn1-c1cc2ccc(O)cc2oc1=O | IC50 | DNA gyrase | gel / absorbance | - | - | 15.6 µM |
| O=C1N=C2C(C(=O)N=C3SC([N+](=O)[O-])=CN32)C(c2cccc(Br)c2)N1 | inhibition | CysK1 | absorbance | 100 µM | - | 39.9% |
| O=C(N[C@H]1[C@@H](OC2C[C@H](CO)[C@@H](O)[C@@H](O)[C@H]2O)O[C@H](CO)[C@@H](O)[C@@H]1O)c1ccc2sccc2c1 | inhibition | MYCOTHIOL-S-CONJUGATE AMIDASE | - | 50 µM | - | <10% |
| O=c1ccn([C@H]2C[C@H](O)[C@@H](CO)O2)c(=O)[nH]1 | Ki | Thymidine monophosphate kinase | - | - | - | 1020 µM |
| CCOc1ccc2cc(-n3nncc3COc3nc(-c4ccccc4)sc3C(=O)OC)c(=O)oc2c1 | IC50 | DNA gyrase | gel / absorbance | - | - | 13.5 µM |
| [N-]=[N+]=N[C@H]1C[C@H](n2cc(Cl)c(=O)[nH]c2=O)O[C@@H]1CO | Ki | Thymidine monophosphate kinase | - | - | - | 16.03 µM |
| O=C1N=C2C(C(=O)N=C3SC([N+](=O)[O-])=CN32)C(c2c(Cl)cccc2Cl)N1 | inhibition | CysK1 | absorbance | 100 µM | - | 42.2% |
| Cc1cn([C@@H]2O[C@H](COP(=O)([O-])[O-])[C@@H](N)[C@H]2O)c(=O)[nH]c1=O | Ki | Thymidine monophosphate kinase | - | - | - | 55.08 µM |
| O=C1N=C2C(C(=O)N=C3SC([N+](=O)[O-])=CN32)C(c2ccc(Cl)cc2)N1 | inhibition | CysK1 | absorbance | 100 µM | - | 20% |
| CCOc1ccc2cc(-n3nncc3COc3nc(-c4cccnc4)sc3C(=O)O)c(=O)oc2c1 | IC50 | DNA gyrase | gel / absorbance | - | - | 10.6 µM |
| Cc1cn([C@H]2C[C@H](CCO)[C@@H](CO)O2)c(=O)[nH]c1=O | Ki | Thymidine monophosphate kinase | - | - | - | 235.5 µM |

Repeating the first 3 entries:

compound	endpoint	protein	method	tested at	strain	result
O=c1[nH]c(=O)n([C@H]2C[C@H](O)[C@@H](COP(=O)([O-])[O-])O2)cc1Cc1ccccc1	Ki	Thymidine monophosphate kinase	-	-	-	10 µM
O=C(CCN1C(=O)/C(=C/c2ccc(OCc3ccccc3)cc2)SC1=S)NNC(=O)c1ccccc1	IC50	Pantothenate synthetase	absorbance	-	-	0.79 µM
COC(=O)c1sc(-c2ccncc2)nc1OCc1cnnn1-c1cc2ccc(N)cc2oc1=O	IC50	DNA gyrase	gel / absorbance	-	-	13.3 µM

Percent inhibition refers to the dose given; in toxicity tests it is the harm to the cells. ICn is the concentration giving n% inhibition. An empty or dashed field is not shown.